# PSTVd stem 15 mutant pool in Nicotiana benthamiana

Source: Wu et al. 2024 (doi:10.1371/journal.ppat.1012142), supplementary data.

PSTVd intermediate strain, stem 15: wild type CUGGAGCGAUCGCUUCGG, pool pattern CUGGAGCGAUNGNNUNNG; upper and lower strand joined, each 5' to 3', the first 9 letters being the upper strand.

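Three N. benthamiana plants were inoculated with the whole mutant pool. Progeny were sequenced from the inoculated region (day 5), the margin of the inoculated leaf (day 10) and systemic leaves (day 12).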

Values are reads per thousand in the sample; higher means more abundant, 0 means not found. Each site shows the three plants. "Pool" is the share in the plasmid pool used as inoculum, on the same scale. The inoculated region was read from the minus strand, the other sites from the plus strand. With 36,693-63,082 reads a sample, very low values are single reads. Sequences that differ at fixed positions probably stem from PCR or sequencing errors, and defective variants can be carried along by functional ones. For reference, wild type rose from 10.2 per thousand in the pool to 285, 367, 312 (inoculated region), 785, 865, 782 (leaf margin) and 854, 898, 915 (systemic leaves).

sequence	pool	inoculated region	leaf margin	systemic leaves
CUGGAGCGAUUGAAUUGG	0.857	0.294 0.251 0.335	0.0827 0 0	0 0 0
CUGGAGCGAUUGAAUUUG	2.18	1.43 1.65 1.25	0 0.191 0	0 0 0
CUGGAGCGAUUGACUAAG	0.970	2.33 1.09 1.56	0.538 0 0.761	0.733 0.487 0.0199
CUGGAGCGAUUGACUACG	0.954	2.19 1.15 0.298	0.0414 0.0273 0	0 0 0
CUGGAGCGAUUGACUAGG	0.824	0.313 0.188 0.261	0.124 0 0.0317	0 0 0
CUGGAGCGAUUGACUAUG	0.921	0.235 0.251 0.279	0.0827 0.0545 0.0476	0 0 0
CUGGAGCGAUUGACUCAG	0.792	1.90 1.03 1.25	0.0414 0.0545 0	0 0 0
CUGGAGCGAUUGACUCCG	1.60	0.861 1.53 0.893	0.0207 0.0545 0.0159	0 0 0.0399
CUGGAGCGAUUGACUCGG	1.36	0.548 1.70 0.651	0.0207 0.0818 0.0317	0 0 0
CUGGAGCGAUUGACUCUG	0.857	0.235 0.209 0.298	0.145 0.0545 0.0317	0 0 0
CUGGAGCGAUUGACUGAG	0.905	2.17 1.21 1.45	0.806 0.0545 0.951	0 0 0
CUGGAGCGAUUGACUGCG	0.679	0.274 0.293 0.391	0 0.109 0.0159	0 0 0
CUGGAGCGAUUGACUGGG	0.954	0.294 0.335 0.168	0.103 0 0	0 0 0
CUGGAGCGAUUGACUGUG	0.679	0.235 0.314 0.335	0.145 0.109 0.0634	0 0 0
CUGGAGCGAUUGACUUAG	0.986	2.97 2.32 2.75	1.28 0.654 1.59	1.68 1.15 0.817
CUGGAGCGAUUGACUUCG	1.07	2.02 1.07 1.53	0.517 0.572 0.777	0.891 0.421 0
CUGGAGCGAUUGACUUGG	0.679	2.33 0.963 0.298	0 0 0.0317	0 0 0
CUGGAGCGAUUGACUUUG	0.743	1.80 1.32 1.49	0.0414 0.0545 0.0159	0 0 0
CUGGAGCGAUUGAGUAAG	0.970	0.157 0.356 0.223	0 0.0273 0	0 0 0
CUGGAGCGAUUGAGUACG	0.808	0.411 0.251 0.298	0.0414 0.0545 0.0159	0 0 0
CUGGAGCGAUUGAGUAGG	0.776	0.254 0.335 0.335	0 0.0545 0.0159	0 0 0
CUGGAGCGAUUGAGUAUG	0.970	0.196 0.209 0.223	0.103 0.0273 0.0159	0 0 0
CUGGAGCGAUUGAGUCAG	1.10	0.333 1.13 0.205	0 0 0.0159	0 0 0
CUGGAGCGAUUGAGUCCG	0.954	0.254 0.272 0.447	0.186 0.0545 0.0476	0 0 0
CUGGAGCGAUUGAGUCGG	0.695	0.196 0.398 0.372	0.0207 0.0273 0.0317	0 0 0
CUGGAGCGAUUGAGUCUG	0.695	0.0783 0.188 0.279	0 0.0273 0	0 0 0
CUGGAGCGAUUGAGUGAG	0.954	0.235 0.356 0.223	0.0414 0 0.0159	0 0 0
CUGGAGCGAUUGAGUGCG	0.776	0.352 0.251 0.354	0.0620 0.0273 0	0 0 0
CUGGAGCGAUUGAGUGGG	1.02	0.254 0.335 0.279	0.0207 0 0.0476	0 0 0
CUGGAGCGAUUGAGUGUG	0.776	0.215 0.314 0.409	0.0620 0 0.0159	0 0 0
CUGGAGCGAUUGAGUUAG	0.727	2.15 0.942 0.279	0.0827 0.0273 0.0476	0 0 0
CUGGAGCGAUUGAGUUCG	0.743	0.430 0.209 0.298	0.103 0 0	0 0 0
CUGGAGCGAUUGAGUUGG	0.727	0.333 0.230 0.354	0.0414 0.0818 0.0159	0 0 0
CUGGAGCGAUUGAGUUUG	0.905	0.294 0.230 0.298	0.103 0.0545 0	0 0 0
CUGGAGCGAUUGAUUAAG	0.873	0.196 0.188 0.316	0.0827 0 0	0 0 0
CUGGAGCGAUUGAUUACG	0.808	0.254 0.293 0.261	0.0207 0.0818 0.0476	0 0 0
CUGGAGCGAUUGAUUAGG	0.986	0.196 0.209 0.242	0.0620 0.0273 0.0317	0 0 0
CUGGAGCGAUUGAUUAUG	2.49	1.13 0.921 1.17	0.0414 0.0545 0.127	0 0 0.0199
CUGGAGCGAUUGAUUCAG	0.760	0.313 0.398 0.261	0.0620 0.0545 0.0159	0 0 0
CUGGAGCGAUUGAUUCCG	0.840	0.157 0.251 0.335	0.0207 0.0273 0.0793	0 0 0
CUGGAGCGAUUGAUUCGG	1.03	0.352 0.251 0.298	0 0.0273 0.0476	0.0198 0 0
CUGGAGCGAUUGAUUCUG	0.824	0.235 0.356 0.428	0.0620 0.0273 0	0 0 0
CUGGAGCGAUUGAUUGAG	1.33	0.763 1.76 0.893	0.0207 0.109 0.0159	0 0 0.0399
CUGGAGCGAUUGAUUGCG	0.873	0.254 0.230 0.316	0.0827 0.0273 0.0159	0 0 0
CUGGAGCGAUUGAUUGGG	2.15	0.978 0.942 0.893	0.103 0.0273 0.0159	0 0 0
CUGGAGCGAUUGAUUGUG	2.49	1.88 1.53 2.33	0.0414 0.0273 0.0159	0 0 0.0598
CUGGAGCGAUUGAUUUAG	1.79	2.11 1.61 1.94	0.538 0.518 0.967	0.752 0.532 0.438
CUGGAGCGAUUGAUUUCG	0.905	0.274 0.272 0.316	0.145 0.0545 0.0317	0 0 0
CUGGAGCGAUUGAUUUGG	0.857	0.215 0.314 0.242	0.0207 0 0	0 0 0
CUGGAGCGAUUGAUUUUG	1.50	0.802 1.65 0.986	0.0414 0.0545 0.0476	0 0 0.0399
CUGGAGCGAUUGCAUAAG	0.937	0.391 0.230 0.149	0.124 0 0.0317	0 0 0
CUGGAGCGAUUGCAUACG	1.02	0.411 0.209 0.205	0.0620 0.0273 0.0159	0 0 0
CUGGAGCGAUUGCAUAGG	0.905	0.215 0.188 0.335	0.0827 0.0273 0.0793	0 0 0
CUGGAGCGAUUGCAUAUG	1.08	0.763 0.335 0.391	0.103 0.0273 0	0 0 0
CUGGAGCGAUUGCAUCAG	0.760	0.215 0.126 0.298	0.0827 0.0273 0	0 0 0
CUGGAGCGAUUGCAUCCG	0.646	0.450 0.168 0.242	0.124 0 0.0476	0 0 0
CUGGAGCGAUUGCAUCGG	0.954	0.0587 0.251 0.223	0.0414 0.0273 0	0 0 0
CUGGAGCGAUUGCAUCUG	0.857	0.254 0.293 0.503	0.0414 0 0	0 0 0
CUGGAGCGAUUGCAUGAG	1.03	0.294 0.921 0.261	0.0620 0.0273 0.0159	0 0 0
CUGGAGCGAUUGCAUGCG	0.760	0.235 0.230 0.168	0.0827 0 0.0159	0 0 0
CUGGAGCGAUUGCAUGGG	0.727	0.274 0.314 0.391	0.0827 0.0545 0.0317	0 0 0
CUGGAGCGAUUGCAUGUG	0.921	0.254 0.147 0.391	0.0827 0.0273 0.0317	0 0 0
CUGGAGCGAUUGCAUUAG	0.582	1.92 1.09 0.223	0.0620 0.0273 0.0159	0 0 0
CUGGAGCGAUUGCAUUCG	0.808	0.254 0.272 0.298	0.0414 0.0273 0.0317	0 0 0
CUGGAGCGAUUGCAUUGG	1.03	0.235 1.34 0.409	0 0.0273 0	0 0 0.0199
CUGGAGCGAUUGCAUUUG	1.02	0.137 1.07 0.242	0.0827 0 0.0317	0 0 0